In patent publication US20230293630A1, “Coronavirus T Cell Epitopes and Uses Thereof” (priority 2020, published 2023):
Where “and” joins values, the source holds several entries; their conditions need not be identical. Equal entries are not always repeated.

How the values were obtained:
[1] = system: SARS-CoV-2-specific CD4+ T cells (OX40+CD137+) in PBMC; assay type: cell-based, human; for Magnitude by # of responding donors: unit not given here; for Sum of response: unit not given here
[2] = system: SARS-CoV-2-specific CD8+ T cells (CD69+CD137+) in PBMC; assay type: cell-based, human; for Magnitude of response: unit not given here; for Sum of response: unit not given here

Row | Sequence | Frequency of response (%) [1] [%] | Magnitude by # of responding donors [1] | Sum of response [1] | Frequency of positive response [2] | Magnitude of response [2] | Sum of response [2]
1 | SVTTEILPVSMTKTS | 8 | 341 | 341 |  |  | 
2 | KHTPINLVRDLPQGF | 18 | 821 | 1641 |  |  | 
3 | TPINLVRDL |  |  |  | 20 | 406 | 406
4 | IPIQASLPF |  |  |  | 50 and 67 | 491 and 809 | 
5 | FLFLTWICLLQFAYA | 7 | 255 | 255 |  |  | 
6 | ALLAGTITSGWTFGA | 9 | 116 | 116 |  |  | 
7 | YAWNRKRISNCVADY | 8 | 582 | 582 |  |  | 
8 | TNFTISVTTEILPVS | 17 | 332 | 663 |  |  | 
9 | TLEILDITPCSFGGV | 8 | 227 | 227 |  |  | 
10 | KRISNCVADYSVLYN | 17 | 164 | 327 |  |  | 
11 | KAYNVTQAFGRRGPE | 15 | 265 | 530 |  |  | 
12 | ATSRTLSYYKLGASQ | 15 | 693 | 1386 |  |  | 
13 | WICLLQFAYANRNRF | 7 | 234 | 234 |  |  | 
14 | KEIDRLNEV |  |  |  | 20 |  | 
15 | FTISVTTEI |  |  |  | 50 | 499 | 997
16 | KRTATKAYNVTQAFG | 31 | 188 | 752 |  |  | 
17 | HIDAYKTFPPTEPKK | 7 | 223 | 223 |  |  | 
